Values of other authors as cited in US12545699B2, “Bivalent LECA inhibitors targeting biofilm formation of Pseudomonas aeruginosa” (HELMHOLTZ-ZENTRUM FÜR INFEKTIONSFORSCHUNG GMBH, priority 2019, dated 2026).

Protein sequences, listed by entry. Tags and fused reporters are not part of them.
UniProt Q05097, whole entry: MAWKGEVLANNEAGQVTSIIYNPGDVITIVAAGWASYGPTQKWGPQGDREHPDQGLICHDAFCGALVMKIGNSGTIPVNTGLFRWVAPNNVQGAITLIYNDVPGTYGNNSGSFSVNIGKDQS

Biological target: LecA (Pseudomonas aeruginosa, UniProt Q05097)
Conditions: read-out: intrinsic affinity (Kd) of the fluorescent tracer to LecA; from Joachim et al., Org Biomol Chem 2016; cited from earlier work

SMILES: O=C(CNC(=S)Nc1ccc(-c2c3ccc(=O)cc-3oc3cc(O)ccc23)c(C(=O)O)c1)Nc1cccc(O[C@@H]2O[C@H](CO)[C@H](O)[C@H](O)[C@H]2O)c1
- Kd: 7.4 µM
